# Single amino acid changes in Zika NS2B-NS3 and viral growth

Chain scanned (Zika virus MR766; NS2B from position 2 to 131, then the start of NS3):
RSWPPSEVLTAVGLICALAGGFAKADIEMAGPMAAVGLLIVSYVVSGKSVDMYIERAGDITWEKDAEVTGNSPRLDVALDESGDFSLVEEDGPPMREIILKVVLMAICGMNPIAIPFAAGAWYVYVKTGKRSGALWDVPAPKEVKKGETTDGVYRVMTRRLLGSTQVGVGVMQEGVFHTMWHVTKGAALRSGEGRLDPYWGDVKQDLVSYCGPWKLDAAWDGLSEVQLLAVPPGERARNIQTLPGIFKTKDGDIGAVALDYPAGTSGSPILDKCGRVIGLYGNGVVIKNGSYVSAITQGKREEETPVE

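Mutant virus pools were grown in human Huh-7.5 cells. The effect is the change in frequency of a mutant, normalised to wild type, as a mean of three replicate libraries (two for positions 207-308). The study looked for pockets that tolerate few changes, as a guide for inhibitor design.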

Values are log2 effects on growth: 0 is wild type, lower means poorer growth.
A change reads original residue, position, new residue.
Values above 0 are not proof of better growth: six high scorers were tested one by one, five grew less well than wild type and one about as well.
The authors count -1 or higher as tolerated. Position 1 is the last residue of NS2A.
Positions 1-103, 104-206 and 207-308 were made and measured as separate libraries.
Stop codons (*) centre on -7 and mark the level of dead virus.

{"substitution": "D251*", "log2 growth effect": -7.38}
{"substitution": "D251A", "log2 growth effect": -3.64}
{"substitution": "D251C", "log2 growth effect": -3.39}
{"substitution": "D251E", "log2 growth effect": -0.40}
{"substitution": "D251F", "log2 growth effect": -4.44}
{"substitution": "D251G", "log2 growth effect": -3.99}
{"substitution": "D251H", "log2 growth effect": -3.19}
{"substitution": "D251I", "log2 growth effect": -5.29}
{"substitution": "D251K", "log2 growth effect": -5.74}
{"substitution": "D251L", "log2 growth effect": -7.00}
{"substitution": "D251M", "log2 growth effect": -4.98}
{"substitution": "D251N", "log2 growth effect": -1.58}
{"substitution": "D251P", "log2 growth effect": -6.28}
{"substitution": "D251Q", "log2 growth effect": -2.67}
{"substitution": "D251R", "log2 growth effect": -6.78}
{"substitution": "D251S", "log2 growth effect": -2.40}
{"substitution": "D251T", "log2 growth effect": -2.47}
{"substitution": "D251V", "log2 growth effect": -6.25}
{"substitution": "D251W", "log2 growth effect": -5.54}
{"substitution": "D251Y", "log2 growth effect": -5.61}
{"substitution": "G252*", "log2 growth effect": -7.79}
{"substitution": "G252A", "log2 growth effect": -1.53}
{"substitution": "G252C", "log2 growth effect": -1.28}
{"substitution": "G252D", "log2 growth effect": -5.55}
{"substitution": "G252E", "log2 growth effect": -3.80}
{"substitution": "G252F", "log2 growth effect": -1.15}
{"substitution": "G252H", "log2 growth effect": -4.61}
{"substitution": "G252I", "log2 growth effect": -5.57}
{"substitution": "G252K", "log2 growth effect": -2.40}
{"substitution": "G252L", "log2 growth effect": -6.02}
{"substitution": "G252M", "log2 growth effect": -2.73}
{"substitution": "G252N", "log2 growth effect": -5.44}
{"substitution": "G252P", "log2 growth effect": -6.28}
{"substitution": "G252Q", "log2 growth effect": -2.19}
{"substitution": "G252R", "log2 growth effect": -0.49}
{"substitution": "G252S", "log2 growth effect": -5.75}
{"substitution": "G252T", "log2 growth effect": -3.97}
{"substitution": "G252V", "log2 growth effect": -7.25}
{"substitution": "G252W", "log2 growth effect": -6.61}
{"substitution": "G252Y", "log2 growth effect": -2.90}

Source: Ni et al. 2025 (doi:10.1038/s41467-025-63602-z), supplementary data.